Source: PubChem BioAssay AID624099 (ICCB-Longwood, 2012)

Screen: 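Host factors E2 relies on to silence an HPV18 LCR reporter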 (primary screen)
Cells: human C33A cervical carcinoma cells (HPV-negative) stably expressing BPV1 E2 and an HPV18 LCR luciferase reporter
Reagent: siRNA pool against human genes, 40 nM
Duration: 72 h
Detection: 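HPV18 LCR reporter light per well, converted to plate-wise z-scores that exclude control wells, and averaged over triplicate plates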
Direction: mean z-score and z-score: higher = stronger reporter signal, weaker E2 silencing
Call rule: 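Hit if mean z-score reaches 2 and two or more of three replicate z-scores also reach 2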
This is one part, drawn at random, of about 21,000 reagents tested. Of all reagents, 497 (2.4%) got an active call. 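Higher z means weaker E2 silencing; only reporter increases were scored, and knock-downs that hurt cell survival may mask genuine repressor factors.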 Entries without a mark were called inactive.

The opening 2 records, ahead of the listing:
EXTL3 [SID134316840] → mean z-score: -1.18; z-score, replicate A: -1.24; z-score, replicate B: -1.26; z-score, replicate C: -1.03
DOK2 [SID134315889] → mean z-score: 0.52; z-score, replicate A: 0.37; z-score, replicate B: 0.55; z-score, replicate C: 0.64

Results, repeating the preview:
EXTL3 [SID134316840] → mean z-score: -1.18; z-score, replicate A: -1.24; z-score, replicate B: -1.26; z-score, replicate C: -1.03
DOK2 [SID134315889] → mean z-score: 0.52; z-score, replicate A: 0.37; z-score, replicate B: 0.55; z-score, replicate C: 0.64
SLC2A5 [SID134312564] → mean z-score: 0.83; z-score, replicate A: 0.84; z-score, replicate B: 0.92; z-score, replicate C: 0.73
LGMN [SID134311351] → mean z-score: 1.15; z-score, replicate A: 1.22; z-score, replicate B: 1.04; z-score, replicate C: 1.19
SCG2 [SID134315762] → mean z-score: 0.49; z-score, replicate A: 0.58; z-score, replicate B: 0.58; z-score, replicate C: 0.3
CYYR1 [SID134319225] → mean z-score: 0.52; z-score, replicate A: 0.16; z-score, replicate B: 0.42; z-score, replicate C: 0.97
LOC391373 (retired record) [SID134327199] → mean z-score: -0.03; z-score, replicate A: -0.29; z-score, replicate B: 0.35; z-score, replicate C: -0.16
EFEMP1 [SID134316171] → mean z-score: -0.02; z-score, replicate A: -0.13; z-score, replicate B: -0.17; z-score, replicate C: 0.25
CCDC12 [SID134319498] → mean z-score: 0.3; z-score, replicate A: 0.11; z-score, replicate B: 0.48; z-score, replicate C: 0.3
SEC16A [SID134326434] → mean z-score: 0.1; z-score, replicate A: -0.04; z-score, replicate B: 0.15; z-score, replicate C: 0.2
BTBD1 [SID134318731] → mean z-score: 1.83; z-score, replicate A: 1.82; z-score, replicate B: 1.79; z-score, replicate C: 1.87
PLEKHA5 [SID134319430] → mean z-score: 1.02; z-score, replicate A: 1.19; z-score, replicate B: 1.19; z-score, replicate C: 0.68
LINC00343 [SID134325109] → mean z-score: -0.95; z-score, replicate A: -0.68; z-score, replicate B: -1.09; z-score, replicate C: -1.07
SLC25A31 [SID134312370] → mean z-score: -0.55; z-score, replicate A: -0.52; z-score, replicate B: -0.64; z-score, replicate C: -0.47
ABRAXAS2 [SID134320153] → mean z-score: 0.54; z-score, replicate A: 0.22; z-score, replicate B: 0.89; z-score, replicate C: 0.52
SPATA31A6 [SID134328057] → mean z-score: 1.48; z-score, replicate A: 1.21; z-score, replicate B: 1.66; z-score, replicate C: 1.57
IFT43 [SID134319201] → mean z-score: 0.18; z-score, replicate A: -0.06; z-score, replicate B: 0.07; z-score, replicate C: 0.51
SPEN [SID134317843] → mean z-score: -0.37; z-score, replicate A: -0.81; z-score, replicate B: -0.4; z-score, replicate C: 0.11
NR2E1 [SID134309870] → mean z-score: 0.57; z-score, replicate A: 0.87; z-score, replicate B: 0.51; z-score, replicate C: 0.33
ATG5 [SID134310413] → mean z-score: 0.63; z-score, replicate A: 0.54; z-score, replicate B: 0.52; z-score, replicate C: 0.83
NCAN [SID134323558] → mean z-score: 0.16; z-score, replicate A: -0.11; z-score, replicate B: 0.24; z-score, replicate C: 0.34
